Source: PMC10569748

What was measured:
Experiment in all cases: purified protein
Conditions in all cases: pH 7.5, 25 °C, 2% DMSO, 5 mM DTT, 1 mM CHAPS, 1 mM EDTA
[1] = system: Cc1cc(=O)oc2cc(NC(=O)[C@H](CCCNC(=N)N)NC(=O)[C@H](CCCNC(=N)N)NC(=O)OCc3ccccc3)ccc12
[2] = system: Cc1cc(=O)oc2cc(NC(=O)[C@H](C)NC(=O)[C@H](CCCNC(=N)N)NC(=O)OCc3ccccc3)ccc12
[3] = system: Cc1cc(=O)oc2cc(NC(=O)[C@H](CCCNC(=N)N)NC(=O)[C@H](Cc3ccccc3)NC(=O)OCc3ccccc3)ccc12

cruzain (Trypanosoma cruzi; E208A) was tested, and the Km [1] was 45 ± 4 µM, the kcat [1] was 0.27 s⁻¹ and the kcat/Km [1] was 6000 M⁻¹ s⁻¹. For the same substance, the Km [2] was 163 ± 3 µM, the kcat [2] was 0.017 s⁻¹ and the kcat/Km [2] was 100 M⁻¹ s⁻¹. For the same substance, the Km [3] was 1.6 ± 0.1 µM, the kcat [3] was 21 s⁻¹ and the kcat/Km [3] was 1.3e+07 M⁻¹ s⁻¹.
